Data as given in PubChem BioAssay AID504761 (Drosophila RNAi Screening Center, 2011).
Aim: 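Insect host genes that dengue virus relies on to spread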 (primary screen). Cell system: D.Mel-2 cells from Drosophila. Knock-down reagent: long dsRNA against Drosophila genes. Challenge: infection with dengue virus type 2; dose and infection time not stated. Read-out: 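Cells stained for dengue envelope protein and imaged; percent of infected cells per well on duplicate plates, ranked by infection, with stained nuclei counted for cell number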. Reading the numbers: infection score: higher = more virus-infected cells. Call rule: 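Low infection ranks in the two replicates (chance level up to 0.065) followed by a retest with a 1.5-fold or larger significant decrease, p below 0.05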. Meaning of the calls: active = confirmed: knock-down lowers infection; inactive = not picked or not confirmed.
In all, the deposit lists about 22,000 reagents; this is an unselected part of those with a known target gene and a result. Of all reagents, 116 (0.52%) got an active call. 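Calls depend on retest data that are not deposited; infection was ranked per plate without normalising between plates; the unit of the infection score is not given.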 The numbers tell different reagents against one gene apart. Not all columns of the deposit are shown. Not stated in the record: the amount of reagent, the time to read-out.

no.	target	reagent no.	infection score, replicate 1	infection score, replicate 2	Call
1	Tsr1 (GeneID 40360)	1	2.51	8.8	inactive
2	CG17327 (GeneID 41598)	1	4.17	8.16	inactive
3	CG42685 (GeneID 34854)	1	1.78	1.06	inactive
4	CG6661 (GeneID 39556)	1	4.76	10.7	inactive
5	kuk (GeneID 42063)	1	12.6	4.06	inactive
6	kuk (GeneID 42063)	2	3.46	1.97	inactive
7	polo (GeneID 40232)	1	5.61	7.48	inactive
8	polo (GeneID 40232)	2	4.2	1.58	inactive
9	dar1 (GeneID 38436)	1	0.86	3.95	inactive
10	CG31952 (GeneID 326179)	1	6.13	11.6	inactive
11	CG31952 (GeneID 326179)	2	3.13	1.54	inactive
12	CG31952 (GeneID 326179)	3	1.57	4.29	inactive
13	Mur89F (GeneID 42080)	1	2.97	13	inactive
14	Mur89F (GeneID 42080)	2	5.13	4.41	inactive
15	smid (GeneID 38824)	1	3.96	3.39	inactive
16	smid (GeneID 38824)	2	34	29.1	inactive
17	CG6592 (GeneID 38687)	1	1.4	4.57	inactive

6 entries from above in another layout:
target,reagent no.,"infection score, replicate 1","infection score, replicate 2",Call
CG31952 (GeneID 326179),1,6.13,11.6,inactive
CG31952 (GeneID 326179),2,3.13,1.54,inactive
CG31952 (GeneID 326179),3,1.57,4.29,inactive
Mur89F (GeneID 42080),1,2.97,13,inactive
Mur89F (GeneID 42080),2,5.13,4.41,inactive
smid (GeneID 38824),1,3.96,3.39,inactive

The list goes on:
no.	target	reagent no.	infection score, replicate 1	infection score, replicate 2	Call
18	Dcr-2 (GeneID 36993)	1	21.4	21.1	inactive
19	Dcr-2 (GeneID 36993)	2	19.8	15.3	inactive
20	CG10749 (GeneID 39470)	1	0.48	0.52	inactive
21	CG10749 (GeneID 39470)	2	13.5	12.3	inactive
22	CG15369 (GeneID 31862)	1	2.21	5.19	inactive
23	Atg16 (GeneID 326115)	1	9.7	4.85	inactive
24	Atg16 (GeneID 326115)	2	1.44	1.28	inactive
25	Atg16 (GeneID 326115)	3	0.45	1.57	inactive
26	scaf (GeneID 35505)	1	7.09	26.4	inactive
27	DIP-beta (GeneID 33125)	1	13.7	10.9	inactive
28	DIP-beta (GeneID 33125)	2	9.45	1.14	inactive
29	DIP-beta (GeneID 33125)	3	6.54	8.4	inactive
30	CG11050 (GeneID 33924)	1	2.22	7.31	inactive
31	CG11050 (GeneID 33924)	2	1.81	9.27	inactive
32	CG11656 (GeneID 41600)	1	12.4	30.2	inactive
33	CG11656 (GeneID 41600)	2	6.79	0.64	inactive
34	GalT1 (GeneID 36279)	1	2.63	4.01	inactive
35	ssx (GeneID 31086)	1	3.79	3.82	inactive
36	ssx (GeneID 31086)	2	3.47	2.22	inactive
37	CG14440 (GeneID 31610)	1	6.36	19.3	inactive
38	CG14440 (GeneID 31610)	2	5.44	7.37	inactive
39	CG14440 (GeneID 31610)	3	8.2	1.83	inactive
